Data as given in PMC8977893 (Frontiers in Cell and Developmental Biology, 2022).

Tested on: SH-SY5Y cells
Type: cell-based, human
Conditions: phase contrast and confocal microscopy

fibrinogen: thrombogenic plasma protein fibrinogen from human plasma (Sigma #F4883)
effect of fibrinogen preincubation on prion-induced aggregates and nuclear clusters: prevented the cells from forming aggregates as well as nuclear clusters
